Assay results from patent EP2565276A1.

Tested on: YopH phosphatase
Details: emission at 465 nm over time; YopH lacks the allosteric site found in PTP1b

CCc1oc2cc(S(=O)(=O)Nc3ccc(S(=O)(=O)Nc4nccs4)cc3)ccc2c1C(=O)c1cc(Br)c(O)c(Br)c1
dissociation from acrylodan-labeled PTP1b on addition of YopH phosphatase: did not dissociate
